Target: UGT73C4 (Arabidopsis thaliana, UniProt Q9ZQ97)
Details: yeast YZGA515, YPD plates with increasing toxin concentrations

The chains behind the UniProt entries cited, without tags or fusion partners. Where a name states a change or a piece, a line headed by the entry shows the natural chain unless it says otherwise.
UniProt Q9ZQ97: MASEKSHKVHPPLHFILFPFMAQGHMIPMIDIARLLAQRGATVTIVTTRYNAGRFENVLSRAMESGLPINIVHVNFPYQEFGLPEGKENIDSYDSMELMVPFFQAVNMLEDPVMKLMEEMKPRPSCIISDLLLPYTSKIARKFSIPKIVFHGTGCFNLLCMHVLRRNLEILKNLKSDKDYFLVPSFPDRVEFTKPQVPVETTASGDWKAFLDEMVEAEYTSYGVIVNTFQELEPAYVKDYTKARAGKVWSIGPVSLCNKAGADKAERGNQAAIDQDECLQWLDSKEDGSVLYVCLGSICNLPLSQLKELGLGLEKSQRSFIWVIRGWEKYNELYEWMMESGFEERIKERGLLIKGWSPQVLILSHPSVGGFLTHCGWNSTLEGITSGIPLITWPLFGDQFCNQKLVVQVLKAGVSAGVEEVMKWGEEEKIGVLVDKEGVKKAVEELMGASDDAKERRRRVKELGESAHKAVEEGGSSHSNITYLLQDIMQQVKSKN

T-2 toxin
resistance to the toxin conferred by UGT73C4 expression (detoxification): failed to confer resistance

Source: patent publication US20060183202A1 (priority 2003, published 2006)
